Results of unrelated studies side by side (data: NIAID ChemDB).

Common to all: whole-cell or culture tests; organism: Mycobacterium avium complex; read-out: MIC50

Blank or dashed fields: not listed here. Conditions beyond the fields shown may differ between rows. MIC50, MIC90 and the like: level of inhibition, or share of isolates inhibited. Two numbers with a dash give a range or band.

structure	strain or isolate	result
CO[C@H]1/C=C/O[C@@]2(C)Oc3c(C)c(O)c4c(O)c(c(/C=N/N5CCN(C)CC5)c(O)c4c3C2=O)NC(=O)/C(C)=C\C=C\[C@H](C)[C@H](O)[C@@H](C)[C@@H](O)[C@@H](C)[C@H](OC(C)=O)[C@@H]1C	20 strains	50 µg/mL
CC(=O)NC[C@H]1CN(c2ccn(-c3ccc(N4CCSCC4)c(F)c3)c2)C(=O)O1	-	5.8 µM
CC[C@H]1OC(=O)[C@H](C)[C@@H](O[C@H]2C[C@@](C)(OC)[C@@H](O)[C@H](C)O2)[C@H](C)[C@@H](O[C@@H]2O[C@H](C)C[C@H](N(C)C)[C@H]2O)[C@](C)(OC)C[C@@H](C)C(=O)[C@H](C)[C@@H](O)[C@]1(C)O	20 strains	12.5 µg/mL
CNn1cc(C(=O)O)c(=O)c2cc(F)c(N3CCN(C)CC3)cc21	22 strains	8 µg/mL
CC1COc2c(N3CCN(C)CC3)c(F)cc3c(=O)c(C(=O)O)cn1c23	101 isolates	8 µg/mL
CN1CCN(c2c(F)cc3c(=O)c(C(=O)O)cn(CCF)c3c2F)CC1	16 isolates	50 µg/mL
CC(=O)OCC1=C(C(=O)O)N2C(=O)[C@@H](NC(=O)CSc3ccncc3)[C@H]2SC1	-	33 µg/mL
C[C@H]1c2cccc(O)c2C(O)=C2C(=O)[C@]3(O)C(O)=C(C(N)=O)C(=O)[C@@H](N(C)C)[C@@H]3[C@@H](O)[C@@H]21	11 strains	32 µg/mL
Cc1c(F)c(N2CCNC(C)C2)cc2c1c(=O)c(C(=O)O)cn2C1CC1	16 isolates	6.25 µg/mL
CN[C@@H]1[C@@H](O)[C@@H](O[C@@H]2[C@@H](O)[C@H](O[C@H]3O[C@H](CN)CC[C@H]3N)[C@@H](N)C[C@H]2N)OC[C@]1(C)O	25 isolates	32 µg/mL
C[C@H]1COc2c(N3CCN(C)CC3)c(F)cc3c(=O)c(C(=O)O)cn1c23	20 strains	6.25 µg/mL
CO[C@H]1/C=C/O[C@@]2(C)Oc3c(C)c(O)c4c(O)c(c(/C=N/N5CCN(C)CC5)c(O)c4c3C2=O)NC(=O)/C(C)=C\C=C\[C@H](C)[C@H](O)[C@@H](C)[C@@H](O)[C@@H](C)[C@H](OC(C)=O)[C@@H]1C	52 strains	6.25 µg/mL
C[C@@H](O)[C@H]1C(=O)N2C(C(=O)O)=C(SCCOC(N)=O)S[C@H]12	22 strains	2 µg/mL
NNC(=O)c1ccncc1	-	1.5 µg/mL
N[C@@H]1CN(c2c(F)cc3c(=O)c(C(=O)O)cn([C@@H]4C[C@@H]4F)c3c2Cl)CC12CC2	-	2–8 µg/mL
O=C(O)c1cn(C2CC2)c2c(Cl)c(N3C[C@@H]4CCCN[C@@H]4C3)c(F)cc2c1=O	-	2 µg/mL
Cc1c(N2C[C@@H](N)C3(CC3)C2)c(F)c(N)c2c(=O)c(C(=O)O)cn(C3CC3)c12	20 strains	6.25 µg/mL
CN(C)c1ccc(O)c2c1C[C@H]1C[C@H]3[C@H](N(C)C)C(=O)C(C(N)=O)=C(O)[C@@]3(O)C(=O)C1=C2O	11 strains	64 µg/mL
CCn1cc(C(=O)O)c(=O)c2cc(F)c(N3CCNCC3)nc21	14 strains	≥32 µg/mL
CC(=O)NC[C@H]1CN(c2ccc(-c3ccc(-c4nnnn4C)nc3)c(F)c2)C(=O)O1	13 isolates	4 µg/mL
Clc1ccc(Nc2cc3nc4ccccc4n(-c4ccc(Cl)cc4)c-3cc2=NC2CCCC2)cc1	-	0.1 µg/mL
CCn1cc(C(=O)O)c(=O)c2cc(F)c(N3CCNCC3)nc21	16 isolates	50 µg/mL
C[C@H]1COc2c(N3CCN(C)CC3)c(F)cc3c(=O)c(C(=O)O)cn1c23	12 strains	4 µg/mL
CCn1cc(C(=O)O)c(=O)c2cc(F)c(N3CCNCC3)cc21	-	16 µg/mL
NC1CCN(c2nc3c(cc2F)c(=O)c(C(=O)O)cn3-c2ccc(F)cc2F)C1	25 isolates	>8 µg/mL
CC1COc2c(N3CCN(C)CC3)c(F)cc3c(=O)c(C(=O)O)cn1c23	-	16–64 µg/mL
CC[C@@H](CO)NCCN[C@@H](CC)CO	-	1.7 µg/mL
CCn1cc(C(=O)O)c(=O)c2cc(F)c(N3CCN(C(C)C)CC3)cc21	14 strains	≥32 µg/mL
CC[C@H]1OC(=O)[C@H](C)[C@@H](O[C@H]2C[C@@](C)(OC)[C@@H](O)[C@H](C)O2)[C@H](C)[C@@H](O[C@@H]2O[C@H](C)C[C@H](N(C)C)[C@H]2O)[C@](C)(OC)C[C@@H](C)C(=O)[C@H](C)[C@@H](O)[C@]1(C)O	28 strains	2 µg/mL
O=C(O)c1cn(-c2ccc(F)cc2F)c2cc(N3CCNCC3)c(F)cc2c1=O	14 strains	4 µg/mL
CC[C@H]1OC(=O)[C@H](C)[C@@H](O[C@H]2C[C@@](C)(OC)[C@@H](O)[C@H](C)O2)[C@H](C)[C@@H](O[C@@H]2O[C@H](C)C[C@H](N(C)C)[C@H]2O)[C@](C)(O)C[C@@H](C)CN(C)[C@H](C)[C@@H](O)[C@]1(C)O	28 strains	32 µg/mL
C[C@@H]1CN(c2cc3c(cc2F)c(=O)c(C(=O)O)cn3C(C)(C)C)C[C@H](C)N1	14 strains	0.25 µg/mL
CN[C@@H]1[C@H](O)[C@H](NC)[C@H]2O[C@@]3(O)C(=O)C[C@@H](C)O[C@H]3O[C@@H]2[C@H]1O	25 isolates	64 µg/mL

4 of the rows above, restated:

structure	strain or isolate	result
CN[C@@H]1[C@@H](O)[C@@H](O[C@@H]2[C@@H](O)[C@H](O[C@H]3O[C@H](CN)CC[C@H]3N)[C@@H](N)C[C@H]2N)OC[C@]1(C)O	25 isolates	32 µg/mL
C[C@@H]1CN(c2cc3c(cc2F)c(=O)c(C(=O)O)cn3C(C)(C)C)C[C@H](C)N1	14 strains	0.25 µg/mL
CCn1cc(C(=O)O)c(=O)c2cc(F)c(N3CCN(C(C)C)CC3)cc21	14 strains	≥32 µg/mL
CCn1cc(C(=O)O)c(=O)c2cc(F)c(N3CCNCC3)nc21	14 strains	≥32 µg/mL